Source: paper PMC4708007 (Bioscience Reports, 2015)

Tests used:
[1] = test system: Nc1ncnc2c1ncn2[C@@H]1O[C@H](COP(=O)(O)OP(=O)(O)OP(=O)(O)O)[C@@H](O)[C@H]1O; assay: purified protein; settings: pH 8.0; 30.0 °C
[2] = test system: Nc1nc2c(ncn2[C@@H]2O[C@H](COP(=O)(O)OP(=O)(O)OP(=O)(O)O)[C@@H](O)[C@H]2O)c(=O)[nH]1; assay: purified protein; settings: pH 8.0; 30.0 °C

With “FtRelA (Francisella tularensis subsp. tularensis SCHU S4)” the K0.5 [1] was 259 ± 37.2 µM, the kcat [1] was 0.00946 s⁻¹ and the K0.5 [2] was 800.7 ± 115.6 µM. For the same substance, the kcat [2] was 0.0106 s⁻¹.
